The results in this text go back to PMC12797228 (ACS Infectious Diseases, 2025).

The chains behind the UniProt entries cited, without tags or fusion partners. Where a name states a change or a piece, a line headed by the entry shows the natural chain unless it says otherwise. Residues count along the entry.
UniProt A0A6H3AG07, 1-807: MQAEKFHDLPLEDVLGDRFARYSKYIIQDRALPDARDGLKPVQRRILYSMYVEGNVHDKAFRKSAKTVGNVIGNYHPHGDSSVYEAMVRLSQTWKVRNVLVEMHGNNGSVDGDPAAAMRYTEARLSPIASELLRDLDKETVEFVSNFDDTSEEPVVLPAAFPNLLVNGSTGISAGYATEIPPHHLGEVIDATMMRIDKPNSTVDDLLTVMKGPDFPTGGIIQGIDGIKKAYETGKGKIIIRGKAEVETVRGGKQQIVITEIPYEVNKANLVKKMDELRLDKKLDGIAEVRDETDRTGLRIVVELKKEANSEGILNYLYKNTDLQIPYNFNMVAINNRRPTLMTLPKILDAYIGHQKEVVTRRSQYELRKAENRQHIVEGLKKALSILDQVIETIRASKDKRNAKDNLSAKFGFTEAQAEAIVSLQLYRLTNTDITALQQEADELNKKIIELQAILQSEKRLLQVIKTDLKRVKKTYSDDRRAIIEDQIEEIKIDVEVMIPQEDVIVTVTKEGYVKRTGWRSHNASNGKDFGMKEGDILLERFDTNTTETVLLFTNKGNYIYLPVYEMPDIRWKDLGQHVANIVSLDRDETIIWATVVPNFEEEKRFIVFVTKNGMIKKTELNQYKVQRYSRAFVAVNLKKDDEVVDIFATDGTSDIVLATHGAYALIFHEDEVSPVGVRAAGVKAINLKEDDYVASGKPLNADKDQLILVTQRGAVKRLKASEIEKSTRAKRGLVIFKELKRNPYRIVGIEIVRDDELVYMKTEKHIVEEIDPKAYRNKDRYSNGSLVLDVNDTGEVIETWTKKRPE
UniProt A0AAC8SCF4, 1-654: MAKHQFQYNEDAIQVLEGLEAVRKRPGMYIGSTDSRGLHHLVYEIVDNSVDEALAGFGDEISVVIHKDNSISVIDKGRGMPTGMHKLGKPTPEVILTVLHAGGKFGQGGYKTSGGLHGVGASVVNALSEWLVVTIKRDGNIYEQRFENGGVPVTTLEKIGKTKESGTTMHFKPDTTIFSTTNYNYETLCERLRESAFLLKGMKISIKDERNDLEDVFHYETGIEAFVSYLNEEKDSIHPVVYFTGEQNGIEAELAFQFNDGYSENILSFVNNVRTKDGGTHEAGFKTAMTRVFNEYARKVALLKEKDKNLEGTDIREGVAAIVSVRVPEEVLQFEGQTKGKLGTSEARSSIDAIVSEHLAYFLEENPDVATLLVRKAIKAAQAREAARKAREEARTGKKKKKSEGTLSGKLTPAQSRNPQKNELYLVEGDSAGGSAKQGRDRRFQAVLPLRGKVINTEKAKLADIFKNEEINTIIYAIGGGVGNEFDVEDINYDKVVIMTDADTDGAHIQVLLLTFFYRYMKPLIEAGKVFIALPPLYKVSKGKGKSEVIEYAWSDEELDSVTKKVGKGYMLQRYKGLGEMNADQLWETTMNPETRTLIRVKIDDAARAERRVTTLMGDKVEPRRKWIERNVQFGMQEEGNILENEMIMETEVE
UniProt A0A6H3A7B1, 1-823: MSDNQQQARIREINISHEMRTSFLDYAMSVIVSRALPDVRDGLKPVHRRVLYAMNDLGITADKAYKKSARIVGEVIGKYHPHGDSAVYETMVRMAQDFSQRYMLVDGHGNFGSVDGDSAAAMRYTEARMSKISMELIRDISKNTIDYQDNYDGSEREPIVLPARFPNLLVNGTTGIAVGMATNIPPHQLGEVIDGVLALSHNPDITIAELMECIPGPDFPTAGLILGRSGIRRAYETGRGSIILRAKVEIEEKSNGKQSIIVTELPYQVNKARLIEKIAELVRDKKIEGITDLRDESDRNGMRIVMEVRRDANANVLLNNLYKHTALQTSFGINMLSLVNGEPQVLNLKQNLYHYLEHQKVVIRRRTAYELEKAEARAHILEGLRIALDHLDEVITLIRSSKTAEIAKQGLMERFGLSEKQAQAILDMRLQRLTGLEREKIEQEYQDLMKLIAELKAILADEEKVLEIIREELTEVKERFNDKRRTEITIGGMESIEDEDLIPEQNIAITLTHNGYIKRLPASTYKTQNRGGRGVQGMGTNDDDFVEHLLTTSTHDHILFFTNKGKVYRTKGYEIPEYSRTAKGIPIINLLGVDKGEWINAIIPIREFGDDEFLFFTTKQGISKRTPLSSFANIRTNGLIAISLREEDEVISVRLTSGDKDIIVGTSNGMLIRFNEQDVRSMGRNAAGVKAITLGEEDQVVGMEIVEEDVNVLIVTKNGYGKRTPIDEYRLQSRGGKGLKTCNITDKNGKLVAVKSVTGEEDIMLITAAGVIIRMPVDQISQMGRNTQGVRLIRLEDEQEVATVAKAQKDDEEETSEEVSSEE
UniProt Q9X3Y6: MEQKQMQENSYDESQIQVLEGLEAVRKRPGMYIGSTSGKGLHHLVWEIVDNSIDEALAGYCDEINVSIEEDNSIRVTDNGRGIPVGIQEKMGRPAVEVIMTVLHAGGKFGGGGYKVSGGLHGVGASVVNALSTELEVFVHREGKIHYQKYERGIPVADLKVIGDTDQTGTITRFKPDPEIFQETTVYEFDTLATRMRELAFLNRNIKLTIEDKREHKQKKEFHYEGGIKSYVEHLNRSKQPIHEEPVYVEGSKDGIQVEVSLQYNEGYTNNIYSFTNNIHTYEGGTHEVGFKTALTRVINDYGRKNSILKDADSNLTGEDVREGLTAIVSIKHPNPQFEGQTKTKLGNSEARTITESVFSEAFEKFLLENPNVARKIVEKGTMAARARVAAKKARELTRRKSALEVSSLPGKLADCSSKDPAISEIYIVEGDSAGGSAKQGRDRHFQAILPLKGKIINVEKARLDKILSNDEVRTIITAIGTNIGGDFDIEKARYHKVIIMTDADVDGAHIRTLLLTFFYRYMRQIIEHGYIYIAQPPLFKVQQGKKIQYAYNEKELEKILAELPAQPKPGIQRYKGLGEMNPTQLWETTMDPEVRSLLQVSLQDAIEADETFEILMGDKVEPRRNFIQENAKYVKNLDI

Where two headings read alike, the source gives them in different places.

Data set [1] deals with wild-type B. anthracis topoisomerase IV (Bacillus anthracis, UniProt A0A6H3AG07+A0AAC8SCF4). In words: biochemical.
Data set [2] concerns the target wild-type B. anthracis gyrase (Bacillus anthracis, UniProt A0A6H3A7B1+Q9X3Y6). In words: biochemical. As to conditions: read-out: Adj-Max Cleavage, single-stranded DNA breaks.
A short description of the next data set: in vivo. The following applies: female, BALB/c, mouse, po, 50 mg/kg.
Setting [3] is: read-out: Adj-Max Cleavage, single-stranded DNA breaks.

Take `O=c1ccc2ncc(=O)n3c2n1C[C@H]3CN1CCC(NCc2cc3c(cn2)OCCC3)CC1` [Gepotidacin, gepotidacin, reference compound]: the “Adj-Max Cleavage, single-stranded DNA breaks” value in data set [1] worked out at 5.3%. For the same compound, the Emax in data set [1] (setting [3]) is roughly 5%; in data set [2], roughly 20%.
On to `COc1ccc2ncc(F)c(C[C@H](O)[C@H]3OC[C@H](NCc4cnc5c(n4)NC(=O)CO5)CO3)c2n1` [OSUAB-0284, 6-(((trans-2-((S)-2-(3-fluoro-6-methoxy-1,5-naphthyridin-4-yl)-1-hydroxyethyl)-1,3-dioxan-5-yl)amino)methyl)-2H-pyrazino[2,3-b][1,4]oxazin-3(4H)-one], for which the “Adj-Max Cleavage, single-stranded DNA breaks” value in data set [1] came to 12.4%. Moreover, the Emax in data set [1] (10 min, read-out: Double-stranded DNA breaks, level induced (adjusted maximal cleavage)) is roughly 2%; in data set [1] (setting [3]), roughly 12%; in data set [2], roughly 25%. Besides, the bioavailability in “in vivo” came out at 124%.
